Source: PMC6523946

Legend:
P02766 [1] = assay: cross-linking; huTTR 0.5 ug/uL with or without CAB, pH 4.0, 37 °C, 14 days; 2.5% glutaraldehyde for 4 min at room temperature; boiled in SDS and beta-mercaptoethanol; 10% Tricine SDS-PAGE; densitometry of the tetramer band
P02766 [2] = assay: Tricine SDS-PAGE at low SDS; huTTR with or without CAB, 7 M urea, 96 h at ~6 °C; 14% Tricine SDS-PAGE with 0.025% SDS in the running buffer and 0.2% SDS in the loading buffer; densitometry of folded huTTR (tetramers, trimers, dimers); conditions: other: Tricine SDS-PAGE at low SDS

Substance: human transthyretin
- percent of tetramers that remained after acid denaturation, with CAB (P02766 [1]): 68.32 ± 0.81%
- percent of tetramers that remained after acid denaturation, without CAB (P02766 [1]): 30.24 ± 0.78%
- percent of folded huTTR (tetramers, trimers, dimers) after urea denaturation, with CAB (P02766 [2]): 89.65 ± 4.6%
- percent of folded huTTR (tetramers, trimers, dimers) after urea denaturation, without CAB (P02766 [2]): 58.87 ± 4.37%
